Anti-infective test results gathered from many reports (values: NIAID ChemDB through PubChem).

Shared fields: whole-cell or culture tests; agent: HIV-1; measure: fold resistance

Blank or dashed fields: not listed here. Lines come from different laboratories, so protocols vary. Fold resistance has wild type as its base.

structure	strain or isolate	mutations	cell line	read by	result
CCN1c2ncc(CCOc3ccc(-c4ccc(C(=O)O)o4)cc3C)cc2C(=O)N(C)c2cccnc21	-	RT-K103N Y181C	C8166	p24	>5
CC=CCOc1cc(NC(=S)c2ccoc2C)ccc1OC	4xAZT(RT-D67N K70R T215Y K219Q)	RT-D67N K70R T215Y K219Q	CEM + CEM-SS	cytopathic effect / XTT	1
O=C1Nc2ccc(F)c(F)c2[C@@](C#CC2CC2)(C(F)(F)F)N1	-	RT-K103N Y181C	-	-	16.7
CCCOC(=O)c1cc(NC(=O)C2=C(C)OCCS2)ccc1Cl	Nevirapine-resistant (RT V106A)	RT-V106A	CEM	syncytia	300
CCOCn1c(Cc2ccccc2)c(C(C)C)c(=O)[nH]c1=O	IIIB	RT-E138K	CEM	syncytia	30
Cc1ccc(C2CC2)c(-c2ccc3c(c2)CCCO3)c1[C@H](OC(C)(C)C)C(=O)O	NL4-3	INSTI-resistant (IN-Q148H)	MT-4	luminescence	1
CCN1c2ncc(CCOc3ccc(-c4csc(N)n4)cc3C)cc2C(=O)N(C)c2cccnc21	-	RT-K103N Y181C	C8166	p24	1
CCc1c(Cc2cc(C)cc(C)c2)n(COCCO)c(=O)[nH]c1=O	IIIB	RT-Y188H	CEM	syncytia	>357
CCN1c2ncc(CCOc3ccc(C(=O)N=c4ccn(O)cc4)cc3C)cc2C(=O)N(C)c2cccnc21	-	RT-K103N Y181C	C8166	p24	1
CCOCn1c(Sc2ccccc2)c(C(C)C)c(=O)[nH]c1=S	IIIB	RT-Y181I	CEM	syncytia	>3330
O=C1Nc2ccc(Cl)cc2[C@@](C#CC2CC2)(C(F)(F)F)N1	-	RT-V108I	-	-	<6.32
CC(C)=CCOc1cc(NC(=S)c2ccsc2C)ccc1Cl	NL4-3	RT-V108I	CEM + CEM-SS	p24	1
CCOCn1c(Cc2ccccc2)c(CC)c(=O)[nH]c1=O	IIIB (TIBO 82150) (RT-L100I)	RT-L100I	CEM	syncytia	5
CCCc1cc(=O)oc2c3c(c4c(c12)OC(C)(C)CC4)O[C@H](C)[C@@H](C)C3=O	-	RT-K103N	-	cytopathic effect / XTT	21
CCN1c2ncc(CCOc3ccc(Nc4nc(C(=O)O)cs4)cc3C)cc2C(=O)N(C)c2cccnc21	-	RT-K103N Y181C	C8166	p24	>1
CCOC(=O)c1cc(NC(=O)C2=C(CC)OCCS2)ccc1Cl	Nevirapine-resistant (RT V106A)	RT-V106A	CEM	syncytia	100
CCN1c2ncc(CCOc3ccc(-c4cccc(CC(=O)O)c4)cc3C)cc2C(=O)N(C)c2cccnc21	-	RT-K103N Y181C	C8166	p24	1
CCOCn1c(Sc2cc(C)cc(C)c2)c(CC)c(=O)[nH]c1=S	IIIB	RT-Y181I	CEM	syncytia	190
Cc1occc1C(=S)Nc1ccc(Cl)c(/C=N/OC(C)(C)C)c1	NL4-3	RT-V106A	CEM + CEM-SS	cytopathic effect / XTT	33.75
CCN1c2ncc(CCOc3ccc(-c4ccc(C(=O)O)cc4)cc3)cc2C(=O)N(C)c2cccnc21	-	RT-K103N Y181C	C8166	p24	>5
N#Cc1cc(Cl)cc(Oc2c(Br)ccc(CC(=O)Nc3ccc(S(N)(=O)=O)cc3Cl)c2F)c1	-	Y181C	MT-4	-	1
Cc1occc1C(=S)Nc1ccc(Cl)c(C(=O)OCC2CC2)c1	NL4-3	RT-V108I	CEM + CEM-SS	cytopathic effect / XTT	1.6
CCN1c2ncc(CCOc3ccc(C(=O)c4ccc(C(=O)O)cc4)cc3C)cc2C(=O)N(C)c2cccnc21	-	RT-K103N Y181C	C8166	p24	>1
CC1=C(C(=O)Nc2cc(C(=O)OC(C)C)c(C)cc2F)SCCO1	Nevirapine-resistant (RT V106A)	RT-V106A	CEM	syncytia	>4.35
CC(C)c1c(Sc2ccccc2)n(COCc2ccccc2)c(=O)[nH]c1=O	IIIB	RT-Y188H	CEM	syncytia	≥3330
CCOC(=O)c1cc(NC(=O)C2=C(C)OCCS2)ccc1Cl	TSAO-resistant (RT E138K)	RT-E138K	CEM	syncytia	65
O=C(O[C@@H]1[C@H](OC(=O)c2ccccc2)[C@@H](CO)O[C@H]1n1cnc2c(N(C(=O)c3ccccc3)C(=O)c3ccccc3)ncnc21)c1ccccc1	NL4-3	N155H	HeLaP4	β-galactosidase	1.04
CN1CCN(C(=O)c2ccc3c(=O)c4ccccc4[nH]c3c2)CC1	PYR-resistant (RT Y181C)	RT-Y181C	CEM	syncytia	71.4
C[C@@H]1CCO[C@H]2Cn3cc(C(=O)NCc4ccc(F)cc4F)c(=O)c(O)c3C(=O)N12	-	L74F/V75I	TZM-bl	luciferase / luminescence	0.3
CC1=C(C(=O)Nc2ccc(Cl)c(C(=O)OC3CCCCC3)c2)SCCO1	PYR-resistant (RT Y181C)	RT-Y181C	CEM	syncytia	12.5
CCN1c2ncc(CCOc3ccc(C(=O)NC(C)(C)CC(=O)O)cc3C)cc2C(=O)N(C)c2cccnc21	-	RT-K103N Y181C	C8166	p24	>5
C=CCO/N=C/c1cc(NC(=S)c2ccoc2C)ccc1Cl	NL4-3	RT-K103N	CEM + CEM-SS	cytopathic effect / XTT	971
CCN1c2ncc(CCOc3ccc(C(=O)Nc4cccc(CC(=O)O)c4)cc3C)cc2C(=O)N(C)c2cccnc21	-	RT-K103N Y181C	C8166	p24	1
COC(=O)c1cc(NC(=O)C2=C(C)OCCS2)ccc1Cl	TIBO-resistant (RT L100I)	RT-L100I	CEM	syncytia	>2.5
Cc1occc1C(=S)Nc1ccc(Cl)c(C(=O)OC(C)C)c1	CALO(RT-T139I)	RT-T139I	CEM + CEM-SS	cytopathic effect / XTT	2
C[C@@H]1CCO[C@H]2Cn3cc(C(=O)NCc4ccc(F)cc4F)c(=O)c(O)c3C(=O)N12	NL4-3	PI-resistant ARP-11807 (L33F/I47A/L63P/A71V/V82A)	MT-4	luminescence	2

For reference, 3 entries again:

structure,strain or isolate,mutations,cell line,read by,result
O=C(O[C@@H]1[C@H](OC(=O)c2ccccc2)[C@@H](CO)O[C@H]1n1cnc2c(N(C(=O)c3ccccc3)C(=O)c3ccccc3)ncnc21)c1ccccc1,NL4-3,N155H,HeLaP4,β-galactosidase,1.04
CC1=C(C(=O)Nc2cc(C(=O)OC(C)C)c(C)cc2F)SCCO1,Nevirapine-resistant (RT V106A),RT-V106A,CEM,syncytia,>4.35
N#Cc1cc(Cl)cc(Oc2c(Br)ccc(CC(=O)Nc3ccc(S(N)(=O)=O)cc3Cl)c2F)c1,-,Y181C,MT-4,-,1